Values from PubChem BioAssay AID624099 (ICCB-Longwood, 2012).
Screen: 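Host factors E2 relies on to silence an HPV18 LCR reporter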 (primary screen). Cell system: human C33A cervical carcinoma cells (HPV-negative) stably expressing BPV1 E2 and an HPV18 LCR luciferase reporter. Knock-down reagent: siRNA pool against human genes, 40 nM. Time to read-out: 72 h. Measured: 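Per-well luciferase luminescence, z-scored on each plate against the plate mean and SD with control wells left out, then averaged across three replicate plates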. Scale: mean z-score and z-score: higher = stronger reporter signal, weaker E2 silencing. Active means: 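Hit if mean z-score reaches 2 and two or more of three replicate z-scores also reach 2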.
The whole screen tested about 21,000 reagents; shown is a random part of them. Over the whole deposit, 497 (2.4%) got an active call. 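Higher z means weaker E2 silencing; only reporter increases were scored, and knock-downs that hurt cell survival may mask genuine repressor factors.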 The numbers tell different reagents against one gene apart.

no.	target gene	reagent no.	mean z-score	z-score, replicate A	z-score, replicate B	z-score, replicate C	call
1	PKP3 (GeneID 11187)	1	-0.55	-0.79	-0.63	-0.23	inactive
2	LOC401324 (GeneID 401324)	1	0.14	0.18	-0.16	0.39	inactive
3	LOC401324 (GeneID 401324)	2	0.47	0.41	0.61	0.39	inactive
4	WARS2 (GeneID 10352)	1	-1.56	-1.61	-1.48	-1.6	inactive
5	MRPL12 (GeneID 6182)	1	-0.34	-0.48	-0.28	-0.26	inactive
6	CDK5RAP2 (GeneID 55755)	1	-0.55	-1.11	-0.32	-0.24	inactive
7	CATSPERB (GeneID 79820)	1	-0.61	-0.69	-0.58	-0.55	inactive
8	RPL32P36 (GeneID 392447)	1	-2.25	-2.09	-2.44	-2.21	inactive
9	ARHGAP5 (GeneID 394)	1	-0.27	-0.18	-0.33	-0.29	inactive
10	ZNF683 (GeneID 257101)	1	0	0.12	0.41	-0.54	inactive
11	TRIB1 (GeneID 10221)	1	-1.48	-1.87	-1.25	-1.32	inactive
12	TCEAL4 (GeneID 79921)	1	-0.59	-0.77	-0.74	-0.27	inactive
13	PCDHGA1 (GeneID 56114)	1	0.9	0.89	0.98	0.82	inactive
14	GAS7 (GeneID 8522)	1	-0.71	-0.79	-0.69	-0.66	inactive
15	ITPR2 (GeneID 3709)	1	1.48	1.73	1.27	1.45	inactive
16	ZNF550 (GeneID 162972)	1	0.63	1.07	0.53	0.28	inactive
17	FABP4 (GeneID 2167)	1	0.21	0.4	0.25	-0.03	inactive
18	TRIM41 (GeneID 90933)	1	-0.29	-0.08	-0.37	-0.43	inactive
19	CABP2 (GeneID 51475)	1	-0.42	-0.14	-0.75	-0.39	inactive
20	PDE1A (GeneID 5136)	1	0.44	0.45	0.33	0.53	inactive
21	TUBA1A (GeneID 7846)	1	-0.07	0.08	0	-0.27	inactive
22	GASAL1 (GeneID 401472)	1	-0.47	-0.26	-0.35	-0.81	inactive
23	YPEL1 (GeneID 29799)	1	0.1	-0.01	0.22	0.1	inactive
24	LEFTY1 (GeneID 10637)	1	-1.31	-0.92	-1.62	-1.39	inactive
25	ATP7A (GeneID 538)	1	0.84	0.93	0.74	0.84	inactive
26	LOC387950 (retired record) (GeneID 387950)	1	-0.93	-1.23	-0.82	-0.73	inactive
27	HSSUCCDH (retired record) (GeneID 54727)	1	1.85	1.64	1.88	2.02	inactive
28	NAA35 (GeneID 60560)	1	0.37	0.34	0.21	0.55	inactive
29	GIT1 (GeneID 28964)	1	-0.92	-0.88	-1.17	-0.71	inactive
30	OR4M1 (GeneID 441670)	1	0.6	0.16	0.37	1.27	inactive
31	CDH18 (GeneID 1016)	1	-1.03	-1.06	-0.86	-1.18	inactive
32	ELL3 (GeneID 80237)	1	-1.04	-1.31	-1.2	-0.6	inactive
33	FDCSP (GeneID 260436)	1	-0.95	-0.64	-1.06	-1.15	inactive
34	YBX3 (GeneID 8531)	1	-0.78	-0.68	-0.75	-0.91	inactive
35	ISYNA1 (GeneID 51477)	1	-1.01	-0.38	-1.17	-1.47	inactive
36	LOC344227 (retired record) (GeneID 344227)	1	0.45	0.37	0.34	0.64	inactive
37	SLC22A8 (GeneID 9376)	1	1.26	1.15	1.36	1.28	inactive
38	TMED4 (GeneID 222068)	1	-1.33	-1.37	-1.5	-1.11	inactive
39	ZBTB9 (GeneID 221504)	1	-0.25	-0.31	-0.16	-0.27	inactive

Part of the list above in another layout:
| target gene | reagent no. | mean z-score | z-score, replicate A | z-score, replicate B | z-score, replicate C | call |
| --- | --- | --- | --- | --- | --- | --- |
| FDCSP (GeneID 260436) | 1 | -0.95 | -0.64 | -1.06 | -1.15 | inactive |
| YBX3 (GeneID 8531) | 1 | -0.78 | -0.68 | -0.75 | -0.91 | inactive |
| ISYNA1 (GeneID 51477) | 1 | -1.01 | -0.38 | -1.17 | -1.47 | inactive |
| LOC344227 (retired record) (GeneID 344227) | 1 | 0.45 | 0.37 | 0.34 | 0.64 | inactive |
| SLC22A8 (GeneID 9376) | 1 | 1.26 | 1.15 | 1.36 | 1.28 | inactive |
| TMED4 (GeneID 222068) | 1 | -1.33 | -1.37 | -1.5 | -1.11 | inactive |
| ZBTB9 (GeneID 221504) | 1 | -0.25 | -0.31 | -0.16 | -0.27 | inactive |
